Literature values as cited in patent publication US20190211044A1, “Adjuvant Chemicals that Prevent Drug Tolerance and Persister Formation by Bacteria” (LifeUnit Inc., priority 2018, published 2019).
This is a selection: effects in other tests are not listed, and their absence says nothing.

System: biofilm
Details: known value beside the concentration used in the assay; cited from earlier work

**Q.** With Sodium Nitroprusside as the substance, how does the DC50 read?
**A.** 50 nM
